A mixed list of measured activities; the numbers were collected in NIAID ChemDB.

Shared fields: tests in culture; agent: HIV-1; cell line: CEM + CEM-SS; read-out: fold resistance

Conditions beyond the fields shown may differ between rows.

structure,strain or isolate,changes,read by,result
Cc1cn([C@H]2C[C@H](N=[N+]=[N-])[C@@H](CO)O2)c(=O)[nH]c1=O,IIIB,RT-L100I,cytopathic effect / XTT,0.8
Cc1cn([C@H]2C[C@H](N=[N+]=[N-])[C@@H](CO)O2)c(=O)[nH]c1=O,NL4-3,RT-T139I,XTT,3
CCc1c(Sc2ccccn2)n(COCc2ccccc2)c(=O)[nH]c1=O,IIIB,RT-K103N Y181C,cytopathic effect / XTT,>453
CC(C)=CCN1Cc2cccc3[nH]c(=S)n(c23)C[C@@H]1C,IIIB(DPS-R(III)),RT-Y181C,cytopathic effect / XTT,70
CCc1c(C(=O)c2cc(C)cc(C)c2)n(CC2CC=CC2)c(=O)[nH]c1=O,NL4-3,Y188C,cytopathic effect / XTT,30
CC(C)=CCN1Cc2cccc3[nH]c(=S)n(c23)C[C@@H]1C,IIIB HEPT-resistant (RT P236L),RT-P236L,cytopathic effect / XTT,1
C/C=C/CSc1cc(NC(=S)c2ccsc2C)ccc1Cl,Calanolide A-resistant (RT T139I),RT-T139I,XTT,8
C/C=C/CSc1cc(NC(=S)c2ccsc2C)ccc1Cl,NL4-3 (RT V106I),RT-V106I,cytopathic effect / XTT,14
c1ccc2c(c1)sc1nccn12,IIIB(N119(III)),RT-Y181C,cytopathic effect / XTT,>200
Cc1ccnc2c1NC(=O)c1cccnc1N2C1CC1,A17,Pyridinone-resistant (RT Y181C K103N),cytopathic effect / XTT,>3800
Cc1cn([C@H]2C[C@H](N=[N+]=[N-])[C@@H](CO)O2)c(=O)[nH]c1=O,IIIB(CALO-R(II)),RT-V90I T139I P225S,cytopathic effect / XTT,1
Cc1ccnc2c1NC(=O)c1cccnc1N2C1CC1,Dihydrocostatolide-resistant (RT-L100I),RT-L100I,XTT,10
Cc1occc1C(=S)Nc1ccc(Cl)c(/C=N/OC(C)(C)C)c1,UC82-R (RT-Y181C),RT-Y181C,cytopathic effect / XTT,5.5
O=S1(c2ccccc2)=NC(=S)Nc2ccccc21,IIIB(N119(III)),RT-Y181C,cytopathic effect / XTT,>250

Repeating the final 2 entries:

structure,strain or isolate,changes,read by,result
Cc1occc1C(=S)Nc1ccc(Cl)c(/C=N/OC(C)(C)C)c1,UC82-R (RT-Y181C),RT-Y181C,cytopathic effect / XTT,5.5
O=S1(c2ccccc2)=NC(=S)Nc2ccccc21,IIIB(N119(III)),RT-Y181C,cytopathic effect / XTT,>250

Fold resistance: result on the changed form divided by that on wild type.